The exact form of at least one protein or probe is not confirmed. At least one verdict rests on a figure or table, not on a statement of the authors.
Experiments:
[1] = tested on: B/NP (influenza B nucleoprotein) (Influenza B virus B/Memphis/13/03); test: fluorescence anisotropy; details: 5' phosphate, recombinant protein, label: 3' FAM
[2] = tested on: B/NP (influenza B nucleoprotein) (Influenza B virus B/Memphis/13/03); test: SEC-MALLS; details: 5' phosphate, 3' OH; recombinant protein; letters put together from the description

Question: Does “UCUCUCUCUCUC [12-nt polyUC RNA, (UC)6-FAM3']” bind ([1]; 50 mM NaCl)?
Answer: Result: binds

Question: Does “UCUCUCUCUCUCUCUCUCUCUCUC [24-nt polyUC RNA]” bind ([1]; 50 mM NaCl, lower affinity than A/NP, letters put together from the description)?
Answer: Result: binds

Question: Does “UCUCUCUCUCUCUCUCUCUCUCUC [24-nt polyUC RNA]” bind ([1]; 150 mM NaCl, no change with salt, letters put together from the description)?
Answer: Result: binds

Question: Does “UCUCUCUCUCUCUCUCUCUCUCUC [24-nt polyUC RNA]” bind ([1]; 300 mM NaCl, no change with salt, letters put together from the description)?
Answer: Result: binds

Question: Does “UCUCUCUCUCUCUCUCUCUCUCUC [24-nt polyUC RNA, unlabelled]” bind [2]?
Answer: Result: binds

Question: Does UCUCUCUC [8-nt polyUC RNA] bind ([1]; 50 mM NaCl, letters put together from the description)?
Answer: Result: binds
